{"source": "patent US11723968", "about": "“Stabilized recombinant hantaviral spike proteins comprising mutations in Gc” (dated 2023)", "key": {"[1]": {"system": "Andes virus Gc mutant T734C, Andes virus"}, "[2]": {"system": "Andes virus Gc mutant V776C, Andes virus"}, "[3]": {"system": "Andes virus glycoprotein Gn, wild type, Andes virus (Andes orthohantavirus CHI-7913 isolate)"}}, "data": [{"substance": "Andes virus Gn mutant H294C", "values": [{"measurement": "melting temperature (Tm) of the temperature-induced Gn/Gc dissociation", "setting": "[1]", "result": 79.1, "unit": "° c."}]}, {"substance": "Andes virus Gn mutant N94C", "values": [{"measurement": "melting temperature (Tm) of the temperature-induced Gn/Gc dissociation", "setting": "[2]", "result": 60.4, "unit": "° c."}]}, {"substance": "Andes virus Gc mutant R951Q", "values": [{"measurement": "melting temperature (Tm) of the temperature-induced Gn/Gc dissociation", "setting": "[3]", "result": 32.3, "unit": "° c."}]}, {"substance": "Andes virus Gc mutant E677Q", "values": [{"measurement": "melting temperature (Tm) of the temperature-induced Gn/Gc dissociation", "setting": "[3]", "result": 35, "unit": "° c."}]}, {"substance": "Andes virus Gc mutant D679S", "values": [{"measurement": "melting temperature (Tm) of the temperature-induced Gn/Gc dissociation", "setting": "[3]", "result": 34.5, "unit": "° c."}]}, {"substance": "Andes virus Gc mutant G838C", "values": [{"measurement": "melting temperature (Tm) of the temperature-induced Gn/Gc dissociation", "setting": "[3]", "result": 48, "unit": "° c."}]}]}
